As usually defined, the inhibition is the drop in the measured response relative to a control, in per cent.

Among the data in PubChem BioAssay AID588549 (Broad Institute, 2011) are inhibition values, retold here.

Structures are written as SMILES. This is a selection; strong and weak results do not stand in their true shares. Active and inactive are the calls of the source. No stated cut-off is given here; in the data, active means inhibition above about 8.5% (passing the limit was not always enough); inconclusive means no clear call, values can overlap the other calls.

The test system of this assay is Mycobacterium tuberculosis FadD28 fatty-acid-AMP ligase. The assay can be described thus: inhibitors of FadD28 bisubstrate probe binding, primary screen, biochemical, fluorescence polarization, single point (AID 588549). Conditions: at 12.5 µM, hits give high values.
In the case of `O=P1(N(CCCl)CCCl)OCCCS1` (configuration not stated), the inhibition is inactive: -1.72%.
On to `O=C(Nc1cc([As](=O)(O)O)ccc1O)c1ccccc1`, for which the inhibition was inactive: -2.2%.
Regarding `CC(C)(C)C(=O)NC(Sc1ccncn1)C(Cl)(Cl)Cl` (configuration not stated), the inhibition is inactive: 0.056%.
The value for `O=[N+]([O-])c1ncn(CCn2ncnc2[N+](=O)[O-])n1` was inactive: 2.6%; that for `O=[N+]([O-])c1cccc(NC2=NCC(CBr)S2)c1` (configuration not stated) was inactive: -1.47%.
For `COC(=O)C1(C)COP(=O)(Nc2ccccc2)OC1` (configuration not stated), the inhibition is inactive: -4.18%.
With `O=C(O)CNc1ccc([As](=O)(O)O)cc1`, the inhibition is inactive: -3.67%.
With `COc1ccc(C2=NCC(CBr)S2)cc1` (configuration not stated), the inhibition is inactive: -2.2%.
Under `O=[N+]([O-])c1cccc2n[nH]nc12` stands inactive: -2.5%; under `CC(=O)N1C2C3N(C(C)=O)C1C1N(C(C)=O)C(C(N1C(C)=O)N3C(C)=O)N2C(C)=O`, inactive: -2.89%.
The value for `CCc1nc2c(n1)c1c(non1O)c1c2no[n+]1[O-]` was inactive: -1.94%; that for `O=[N+]([O-])c1cc([N+](=O)[O-])c(CCNc2ccccc2)c([N+](=O)[O-])c1` was inactive: -2.62%.
Under `Cc1ccc(NP(=O)(Oc2ccccc2)Oc2ccccc2)nc1` stands inactive: -0.651%.
On to `C[N+]1=C2C=CC=CC=C2SC12C([N+](=O)[O-])=CC([N+](=O)[O-])=C[C-]2[N+](=O)[O-]` (configuration not stated), for which the inhibition is inactive: 2.95%.
The value for `Nc1ccc([As](=O)(O)c2ccc(N)cc2)cc1` was inactive: -1.95%; that for `CN(C)C(=O)OCCc1n(C)cc[n+]1C` was inactive: -2.82%; that for `CC(C)=N/N=C(\N)N[N+](=O)[O-]` was inactive: -2.64%.
Consider `CC(C)c1nc(Nc2ccccc2)n(P(=O)(N(C)C)N(C)C)n1`, for which the inhibition was inactive: -0.815%.
The value for `c1cc(-c2nn[nH]n2)ccc1-c1nn[nH]n1` was inactive: -1.41%.
On to `CC1CCN(C(=O)Oc2c(Cl)cc(Cl)c3cccnc23)CC1`, for which the inhibition is inactive: -1.77%.
Under `NC(=O)c1cc([N+](=O)[O-])cc([N+](=O)[O-])c1N` stands inactive: -2.05%; under `Cc1ccc(N/C(=N/P(=O)(N2CCOCC2)N2CCOCC2)N2CCOCC2)cc1`, inactive: -2.09%; under `CN(C(=O)Cc1ccc(Cl)c(Cl)c1)[C@H]1CCCC[C@H]1N1CCCC1`, inactive: -4.46%.
Turning to `Cc1ccc(OP(=O)(Nc2nccs2)Oc2ccc(C)cc2)cc1`, the inhibition is inactive: -0.576%.
In the case of `COc1ccccc1OP(=O)(Nc1ccc(C)cn1)Oc1ccccc1OC`, the inhibition was inactive: 0.398%.
The value for `Clc1ccc(Cl)c(NC2=NCC(CBr)S2)c1` (configuration not stated) was inactive: -5.63%; that for `CN1CCCC(OC(=O)C(c2ccccc2)c2ccccc2)C1` (configuration not stated) was inactive: 1.04%.
